# HIV-1 5' UTR: effect of mutations on RNA dimer formation

The 5' region of HIV-1 NL4-3 RNA (positions 1-437):
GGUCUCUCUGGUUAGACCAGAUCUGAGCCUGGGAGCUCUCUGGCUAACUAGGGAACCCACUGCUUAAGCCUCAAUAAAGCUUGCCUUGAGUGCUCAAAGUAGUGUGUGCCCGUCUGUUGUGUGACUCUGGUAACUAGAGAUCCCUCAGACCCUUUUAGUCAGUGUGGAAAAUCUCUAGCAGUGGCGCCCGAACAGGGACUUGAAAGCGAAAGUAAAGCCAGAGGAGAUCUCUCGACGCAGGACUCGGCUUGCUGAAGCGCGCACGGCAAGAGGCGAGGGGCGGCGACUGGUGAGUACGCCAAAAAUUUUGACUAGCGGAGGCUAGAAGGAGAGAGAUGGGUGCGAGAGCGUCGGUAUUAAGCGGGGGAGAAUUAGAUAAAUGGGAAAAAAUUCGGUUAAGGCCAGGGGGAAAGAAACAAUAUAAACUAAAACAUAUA

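Randomly mutated transcripts starting with one, two or three G (1G, 2G, 3G), capped or uncapped, were folded for 30 min at 37 °C. Monomer and dimer bands were cut from native gels after folding in high salt (300 mM KCl, 5 mM MgCl2) or low salt (40 mM KCl, 0.1 mM MgCl2). Kdimer compares mutation frequencies in monomer and dimer, corrected for sequencing errors.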

Values are log2 Kdimer, the median over the changes at each position: higher means that changes there hinder dimer formation, below 0 that they favour it.
One numbering serves 1G, 2G and 3G.
A position is written with its base where known.

| position | domain | 2G capped high-salt | 2G capped low-salt | 2G uncapped high-salt | 2G uncapped low-salt |
|---|---|---|---|---|---|
| 443 | none | 0.13 | 0.14 | 0.17 | 0.11 |
| 444 | none | 0.09 | 0.10 | 0.13 | 0.14 |
| 445 | none | 0.55 | 0.10 | 0.03 | 0.08 |
| 446 | none | 0.40 | 0.09 | 0.10 | 0.07 |
| 447 | none | 0.23 | -0.07 | -0.06 | 0.09 |
| 448 | none | 0.24 | 0.06 | -0.08 | 0.06 |
| 449 | none | 0.27 | 0.12 | 0.04 | -0.09 |
| 450 | none | 0.28 | 0.00 | 0.09 | 0.04 |
| 451 | none | 0.29 | 0.00 | 0.03 | 0.03 |
| 452 | none | -0.15 | 0.03 | 0.05 | 0.13 |
| 453 | none | 0.05 | -0.12 | 0.03 | 0.14 |
| 454 | none | 0.04 | -0.11 | 0.04 | -0.04 |
| 455 | none | -0.04 | -0.07 | 0.01 | -0.08 |
| 456 | none | -0.05 | -0.08 | 0.03 | -0.03 |
| 457 | none | -0.12 | 0.04 | 0.04 | 0.06 |
| 458 | none | 0.08 | 0.10 | 0.01 | 0.04 |
| 459 | none | 0.12 | -0.18 | 0.10 | 0.00 |
| 460 | none | -0.08 | -0.10 | 0.03 | 0.08 |
| 461 | none | 0.06 | 0.02 | 0.04 | -0.04 |
| 462 | none | -0.02 | -0.04 | 0.12 | 0.05 |
| 463 | none | 0.17 | 0.14 | 0.19 | -0.05 |
| 464 | none | 0.36 | 0.08 | 0.07 | 0.02 |
| 465 | none | 0.12 | 0.07 | 0.02 | 0.03 |
| 466 | none | 0.37 | 0.08 | 0.03 | 0.02 |
| 467 | none | 0.26 | 0.09 | -0.07 | 0.02 |
| 468 | none | 0.39 | -0.07 | -0.03 | -0.01 |
| 469 | none | 0.41 | -0.07 | 0.01 | -0.02 |
| 470 | none | 0.09 | 0.10 | 0.00 | -0.03 |
| 471 | none | -0.10 | 0.09 | 0.07 | 0.06 |
| 472 | none | 0.03 | -0.06 | 0.01 | -0.02 |
| 473 | none | 0.00 | 0.06 | -0.07 | -0.05 |
| 474 | none | -0.12 | 0.01 | 0.01 | 0.04 |
| 475 | none | -0.02 | -0.10 | -0.11 | 0.03 |
| 476 | none | 0.07 | -0.11 | 0.00 | -0.16 |
| 477 | none | -0.08 | -0.15 | -0.09 | -0.04 |
| 478 | none | -0.05 | -0.11 | -0.05 | -0.06 |
| 479 | none | -0.06 | -0.06 | -0.05 | 0.00 |
| 480 | none | -0.08 | -0.22 | -0.12 | -0.03 |
| 481 | none | -0.14 | -0.16 | -0.10 | 0.00 |
| 482 | none | 0.00 | -0.09 | 0.01 | -0.01 |
| 483 | none | 0.03 | -0.20 | 0.05 | -0.05 |
| 484 | none | -0.07 | 0.12 | -0.07 | 0.09 |
| 485 | none | -0.05 | 0.00 | -0.04 | -0.01 |
| 486 | none | 0.01 | 0.04 | 0.01 | 0.05 |
| 487 | none | 0.03 | 0.04 | 0.05 | 0.00 |
| 488 | none | -0.01 | 0.00 | 0.08 | -0.01 |
| 489 | none | 0.00 | -0.15 | 0.04 | 0.03 |
| 490 | none | 0.07 | -0.05 | -0.01 | -0.02 |
| 491 | none | 0.09 | -0.06 | 0.06 | -0.10 |
| 492 | none | 0.08 | 0.07 | 0.03 | 0.09 |

Excerpt, the final 3 entries:

position,domain,2G capped high-salt,2G capped low-salt,2G uncapped high-salt,2G uncapped low-salt
490,none,0.07,-0.05,-0.01,-0.02
491,none,0.09,-0.06,0.06,-0.10
492,none,0.08,0.07,0.03,0.09

The source gives no letters past position 437.

The measurements come from Ye et al. 2022 (doi:10.1038/s41594-022-00746-2).